Consider 17 compounds from paper PMC11883425, “The synthesis and investigation of novel 3-benzoylbenzofurans and pyrazole derivatives for anti-HIV activity” (RSC Medicinal Chemistry, 2025).

Molecules are shown by their SMILES.

For data set [1], the system named is HIV-1 CAP210 pseudovirus. As to the kind of experiment: HIV-1 whole virus inhibition assay, CAP210 pseudovirus (luciferase, TZM-bl cells). It is filed as cell-based. The note with it: ratio of CC50 (TZM-bl) to IC50 (CAP210). As for the experimental part:
(§1) The HIV pseudoviruses were produced from the plasmids that were kindly donated by Dr Mthunzi-Kufa (CSIR, South Africa). Competent DH5α cells and STBL2 cells were transformed with envelope (CAP210.2.00.E8 and Q23.17) and backbone plasmid (HIV-1 SG3 ΔEnv) through heat-shock at 42 °C for 90 seconds and cooled in ice for 5 minutes. The transformed cells were grown in Luria Bertani medium containing 100 μg mL^−1 ampicillin and glycerol stocks were prepared. The transformed cells were grown at 37 °C in a 200 rpm shaking incubator overnight and the plasmids were isolated from the cells using a GeneJET plasmid Miniprep Kit (ThermoFisher Scientific Inc). The purity of the isolated plasmids was assessed for purity using Nanodrop. The HEK 293T cells were co-transfected with the backbone (10 μg) and envelope plasmids (5 μg) using the PolyFect Transfection Reagent (QIAGEN N.V) for 8–12 hours and the transfected cells were grown for 48 hours producing pseudoviruses which were collected, and stocks stored at −80 °C.
(§2) The compounds were serial diluted from 100 to1.56 μM in 96 well plates (Separation Scientific SA (Pty) Ltd) and incubated with either CAP210 or Q23 pseudoviruses (200 TCID50) and incubated for 1 hour. The TZM-bl cells (1 × 10^5 cells per mL containing 7.5 μg mL^−1 DEAE-dextran) were added and incubated for 48 hours. The 96 well plates were centrifuged, and the supernatant was removed leaving only 50 μL in each well. The Bright-Glo™ Luciferase substrate (Anatech Instruments (Pty) Ltd) (50 μL) was added to each well and incubated for 2 minutes in the dark and chemiluminescence readings were taken in a Corning® 96-well white polystyrene plate using a SpectraMax® Paradigm® Multi-Mode Microplate Reader.

For data set [2], the system named is HIV-1 Q23 pseudovirus. As to the kind of experiment: HIV-1 whole virus inhibition assay, Q23 pseudovirus (luciferase, TZM-bl cells). The note with it: ratio of CC50 (TZM-bl) to IC50 (Q23). The format is cell-based. The procedure: as §1, §2

As for `COc1cc(F)ccc1C(=O)c1coc2ccc(O)cc12` [3f, (4-fluoro-2-methoxyphenyl)(5-hydroxy-1-benzofuran-3-yl)methanone], in data set [1], the “SI (CAP210)” value is listed as 3.76. Further, the “SI (Q23)” value in data set [2] is 1.03.
Taken in the same sequence, the figures for `COc1ccc(C(=O)c2coc3ccc(O)cc23)c(OC)c1OC` [3g, (5-Hydroxybenzofuran-3-yl)(2,3,4-trimethoxyphenyl)methanone] were 16.26 and 20.47.
On the same counts, the results for `COc1ccc(OC)c(C(=O)c2coc3ccc(O)cc23)c1` [3h, (5-Hydroxybenzofuran-3-yl)(2,5-dimethoxyphenyl)methanone] are 11.23 and 8.71.
On to `COc1ccc(OC)c(C(=O)c2coc3cc(C)c(OC)c(C)c23)c1` [4a, (2,5-Dimethoxyphenyl)(5-methoxy-4,6-dimethyl-1-benzofuran-3-yl)methanone], for which the “SI (CAP210)” value in data set [1] came out at 7.26. In addition, the “SI (Q23)” value in data set [2] was found to be 3.26.
Taken in the same sequence, the figures for `COc1ccc(OC)c(C(=O)c2coc3c(C)cc(OC)c(C)c23)c1` [4b, (2,5-Dimethoxyphenyl)(5-methoxy-4,7-dimethyl-1-benzofuran-3-yl)methanone] were 70.17 and 17.18.
On the same counts, the results for `COc1ccc(OC)c(C(=O)c2coc3c2cc(OC)c2ccccc23)c1` [4c, (2,5-Dimethoxyphenyl)(5-methoxynaphtho[1,2-b]furan-3-yl)methanone] are 3.97 and 0.76.
On the same counts, the results for `COc1ccc(Br)cc1C(=O)c1coc2c1cc(OC)c1ccccc12` [4d, (5-Bromo-2-methoxyphenyl)(5-methoxynaphtho[1,2-b]furan-3-yl)methanone] are 2.36 and 0.35.
Consider `COc1cc(F)ccc1C(=O)c1coc2c1cc(OC)c1ccccc12` [4e, (4-Fluoro-2-methoxyphenyl)(5-methoxynaphtho[1,2-b]furan-3-yl)methanone], for which the “SI (CAP210)” value in data set [1] is listed as 8.24. Besides, the “SI (Q23)” value in data set [2] amounted to 1.68.
On the same counts, the results for `COc1ccc(OC)c(-c2n[nH]cc2-c2c(O)cc(C)c(OC)c2C)c1` [5a, 2-[3-(2,5-Dimethoxyphenyl)-1H-pyrazol-4-yl]-4-methoxy-3,5-dimethylphenol] are 4.83 and 6.67.
Take `COc1ccc(OC)c(-c2n[nH]cc2-c2c(C)c(OC)cc(C)c2O)c1` [5b, 2-[3-(2,5-Dimethoxyphenyl)-1H-pyrazol-4-yl]-4-methoxy-3,6-dimethylphenol]: in data set [1], the “SI (CAP210)” value is reported as 5.90. The “SI (Q23)” value in data set [2] is reported as 4.60.
In the case of `COc1ccc(OC)c(-c2n[nH]cc2-c2cc(OC)c3ccccc3c2O)c1` [5c, 2-[3-(2,5-Dimethoxyphenyl)-1H-pyrazol-4-yl]-4-methoxynaphthalen-1-ol], the “SI (CAP210)” value in data set [1] is reported as 2.33. Moreover, in data set [2], the “SI (Q23)” value came out at 3.68.
Taken in the same sequence, the figures for `COc1ccc(Br)cc1-c1n[nH]cc1-c1cc(OC)c2ccccc2c1O` [5d, 2-[3-(5-Bromo-2-methoxyphenyl)-1H-pyrazol-4-yl]-4-methoxynaphthalen-1-ol] were 3.61 and 4.62.
Taken in the same sequence, the figures for `COc1cc(F)ccc1-c1n[nH]cc1-c1cc(OC)c2ccccc2c1O` [5e, 2-[3-(4-Fluoro-2-methoxyphenyl)-1H-pyrazol-4-yl]-4-methoxynaphthalen-1-ol] were 3.55 and 6.60.
Taken in the same sequence, the figures for `COc1cc(F)ccc1-c1n[nH]cc1-c1cc(O)ccc1O` [5f, 2-[3-(4-Fluoro-2-methoxyphenyl)-1H-pyrazol-4-yl]benzene-1,4-diol] were 36.43 and 92.49.
`COc1ccc(-c2n[nH]cc2-c2cc(O)ccc2O)c(OC)c1OC` [5g, 2-[3-(2,3,4-Trimethoxyphenyl)-1H-pyrazol-4-yl]benzene-1,4-diol]: the “SI (CAP210)” value in data set [1] worked out at 10.15. Moreover, the “SI (Q23)” value in data set [2] is given as 14.11.
On the same counts, the results for `COc1ccc(OC)c(-c2n[nH]cc2-c2cc(O)ccc2O)c1` [5h, 2-[3-(2,5-Dimethoxyphenyl)-1H-pyrazol-4-yl]benzene-1,4-diol] are 22.55 and 17.48.
As for `Cc1ccnc2c1NC(=O)c1cccnc1N2C1CC1` [NVP, nevirapine, reference compound], the “SI (CAP210)” value in data set [1] is listed as above 500. In data set [2], the “SI (Q23)” value is on record as above 500.
